The values below come from article PMC10869273, “Efficient evolution of human antibodies from general protein language models” (2023).

In this assay the target is m5 (UniProt Q05320). Nature of the assay: BLI. Conditions: monovalent Fab.

For orientation: Kd means a measure of binding affinity in units of concentration. “mAb114 unmutated common ancestor (UCA) Fab (wild-type) VH:P60A; VH:G61D; VL:V43A”: for the setting “parent: 75”, the Kd was 480 nM. Consider “mAb114 Fab (wild-type) VH:D42G; VH:A68T; VH:S79Y; VL:V43A”, for which the Kd (parent: 0.21) was determined as 0.061 nM.
